Test in all cases: fold change of IC50 against reference virus; higher = more resistant; Cell-culture drug susceptibility tests of virus bearing the protease of each isolate, gathered from many studies.
Compound in one assay: CC(C)(C)NC(=O)[C@@H]1CN(Cc2cccnc2)CCN1C[C@@H](O)C[C@@H](Cc1ccccc1)C(=O)N[C@H]1c2ccccc2C[C@H]1O [indinavir]
Compound in the next assay: CC(C)(C)NC(=O)[C@@H]1C[C@@H]2CCCC[C@@H]2CN1C[C@@H](O)[C@H](Cc1ccccc1)NC(=O)[C@H](CC(N)=O)NC(=O)c1ccc2ccccc2n1 [saquinavir]
Compound in the next assay: CCC[C@@]1(CCc2ccccc2)CC(O)=C([C@H](CC)c2cccc(NS(=O)(=O)c3ccc(C(F)(F)F)cn3)c2)C(=O)O1 [tipranavir]
Compound in a further assay: COC(=O)N[C@H](C(=O)N[C@@H](Cc1ccccc1)[C@@H](O)CN(Cc1ccc(-c2ccccn2)cc1)NC(=O)[C@@H](NC(=O)OC)C(C)(C)C)C(C)(C)C [atazanavir]
Compound in the next assay: Cc1c(O)cccc1C(=O)N[C@@H](CSc1ccccc1)[C@H](O)CN1C[C@H]2CCCC[C@H]2C[C@H]1C(=O)NC(C)(C)C [nelfinavir]
Compound in the next assay: Cc1cccc(C)c1OCC(=O)N[C@@H](Cc1ccccc1)[C@@H](O)C[C@H](Cc1ccccc1)NC(=O)[C@H](C(C)C)N1CCCNC1=O [lopinavir]
Compound in a further assay: CC(C)c1nc(CN(C)C(=O)N[C@H](C(=O)N[C@@H](Cc2ccccc2)C[C@H](O)[C@H](Cc2ccccc2)NC(=O)OCc2cncs2)C(C)C)cs1 [ritonavir]

Fold change is the IC50 on the isolate divided by the IC50 on a reference virus; 1 = unchanged, higher = more resistant. Changes are given against the subtype B consensus. No active / inactive call. The values were gathered from many studies (numbered anew) with different assays, which the source does not name. Most viruses are clinical isolates; some are laboratory strains or clones with known resistance changes. Isolates with mixed residues are left out; stretches that were not sequenced show no change. Round top values that many isolates share are read here as limits; other very high values and 0.1 may be limits too. The protease changes I3V and N37S, insertions and deletions cannot be read from the source.

In the case of “HIV-1 isolate 584 (protease changes: I13V K20R V32I L33F E35D M36I R41K K43T I47V I54M I62V L63V A71V I72T G73S T74P V82L L89V I93L, study 46)”, the “fold change of IC50 against reference virus” value (from here on “fold change of IC50”) in the assay with indinavir worked out at 48; with saquinavir, 3.3; with tipranavir, 23; in the assay with atazanavir it was 40; in the assay with nelfinavir, 23; in the assay with lopinavir, 155.

“HIV-1 isolate 543 (protease changes: L10F V11I T12P I13V I15V L19P K20I E35G M36I M46I I54V L63P A71V I72L G73S I84V L90M I93L, study 64)”: the “fold change of IC50” value in the assay with indinavir was at least 500; with ritonavir it was at least 800; with tipranavir, 5.1; with atazanavir it was 182; in the assay with nelfinavir, at least 600.

As for “HIV-1 isolate 1437 (protease changes: L10I V11L I13V I15V G16A V32I L33F E34Q E35D M36I K43T M46I I47V F53L I54L K55R D60E I62V L63P I66V A71I G73T V77I I84V L90M I93L, study 15)”, the “fold change of IC50” value with saquinavir came to 400; with tipranavir it was 400; with atazanavir, 400; in the assay with nelfinavir, 91; with lopinavir, 400.

Consider “HIV-1 isolate 11 (protease changes: L10F I15V K20I M36I M46I I47V I54V I62V L63P A71V I72T G73S I84V I85V L90M I93L, study 64)”, for which the “fold change of IC50” value was 6.4 in the assay with tipranavir, 206 with atazanavir, 166 with nelfinavir and 206 with lopinavir.

Take “HIV-1 isolate 1412 (protease changes: T12A I15V R41K I62V L63P V77I I93L, study 64)”: the “fold change of IC50” value with indinavir turned out to be 0.5; with saquinavir it was 1; with ritonavir it was 0.4; with tipranavir it was 0.9; in the assay with atazanavir it was 0.7; in the assay with nelfinavir it was 0.6.

For “HIV-1 isolate 1606 (protease changes: I13V V32I L33F K45I R57G V82L I84V, study 76)”, the “fold change of IC50” value worked out at 28 in the assay with indinavir; 0.6 with saquinavir; 61 in the assay with ritonavir; 16 with tipranavir; 37 with atazanavir; 5 in the assay with nelfinavir.

“HIV-1 isolate 1085 (protease changes: L10I I15L L19I E35D M36I R41K M46I K55R I62V L63P A71T I72T I84V I85V L90M, study 15)”: the “fold change of IC50” value in the assay with indinavir came out at 9.2; with saquinavir, 18; with tipranavir, 17; with atazanavir, 6.8; in the assay with nelfinavir it was 21; with lopinavir, 4.1.

As for “HIV-1 isolate 1383 (protease changes: L10I N37D G48V F53L I54V L63P A71T V77I V82A L90M I93L, study 64)”, the “fold change of IC50” value is 38 with indinavir; 30 with ritonavir; 0.2 in the assay with tipranavir; 46 in the assay with atazanavir; 29 with nelfinavir.

Regarding “HIV-1 isolate 1507 (protease changes: L10V M36I K43T G48V I54V I62V I64V T74S V82A, study 64)”, the “fold change of IC50” value in the assay with indinavir came out at 21; with saquinavir, 156; with ritonavir it was 50; in the assay with tipranavir it was 1; with atazanavir it was 24; with nelfinavir, 37.

Consider “HIV-1 isolate 996 (protease changes: L10V K20R V32I L33F E35D M36I N37D M46I F53L I54L L63P I64M C67E A71V I72V V82A N83D L89V L90M I93L, study 15)”, for which the “fold change of IC50” value is 23 in the assay with indinavir; 400 with saquinavir; 93 with tipranavir; 112 in the assay with atazanavir; 72 in the assay with lopinavir.

Regarding “HIV-1 isolate 735 (protease changes: L10I E35D M36I R41K I62V L63P I64M A71V I84V L90M I93L, study 15)”, the “fold change of IC50” value was 6.5 in the assay with indinavir; 23 with saquinavir; 35 with tipranavir; 3.2 with atazanavir; 17 with nelfinavir; 4.3 in the assay with lopinavir.

As for “HIV-1 isolate 1040 (protease changes: L10V I13V I15V L19I L33F E34T M36L R41K M46I I47V I54V K55R Q61H I62V L63P A71T I72E G73A V77I V82C I85L L90M I93L, study 15)”, the “fold change of IC50” value with indinavir amounted to 9.4; in the assay with saquinavir it was 400; with tipranavir it was 29; in the assay with atazanavir, 58; with nelfinavir it was 67; with lopinavir it was 116.

Regarding “HIV-1 isolate 1079 (protease changes: L10I I13V K14R V32I L33F K43T M46I I47V I54L I62V L63P A71T I72T G73T V77I P79S I84V L90M, study 46)”, the “fold change of IC50” value with indinavir amounted to 36; with saquinavir, 36; in the assay with tipranavir it was 7.7; with atazanavir, 86; with nelfinavir it was 26; with lopinavir, 133.

“HIV-1 isolate 510 (protease changes: L63P K70T I93L, study 64)”: the “fold change of IC50” value with indinavir came out at 0.7; in the assay with saquinavir, 0.6; in the assay with ritonavir it was 0.5; in the assay with tipranavir it was 0.6; with atazanavir, 0.8; with nelfinavir, 1.

With “HIV-1 isolate 1390 (protease changes: I13V I15V R41K I62V I64V V77I, study 122)”, the “fold change of IC50” value was 100 with indinavir, 100 with ritonavir, 4.8 with tipranavir and 100 in the assay with nelfinavir.

As for “HIV-1 isolate 1266 (protease changes: L10I I13V G16E L33F M36L N37T P39S K45R M46L I54V K55R I62V L63P A71V G73D V82T I84V L89V L90M I93L, study 46)”, the “fold change of IC50” value with indinavir was determined as 189; in the assay with saquinavir it was 223; in the assay with tipranavir it was 96; with atazanavir, 121; with nelfinavir, 38; with lopinavir it was 133.

In the case of “HIV-1 isolate 1184 (protease changes: L10I I15V G16A K20R V32I M36I M46I F53L I54V K55R Q58E L63P A71V I72V L76V V82A L90M I93L, study 64)”, the “fold change of IC50” value with indinavir came to 56; with saquinavir it was 30; in the assay with tipranavir it was 1.6; with atazanavir, 39; with nelfinavir, 119; with lopinavir it was 189.

For “HIV-1 isolate 1062 (protease changes: L10I E34Q G48V I54S I62V L63P A71V T74S V77I V82A I93L, study 124)”, the “fold change of IC50” value was 164 with indinavir; 376 with saquinavir; 146 in the assay with ritonavir; 1.5 with tipranavir; 228 with nelfinavir; 87 with lopinavir.

Values taken from the supplement of paper PMC3578754.
